Experimental data reported in patent US6699901B1, “Dicarboxylato diammine platinum derivatives and compositions comprising them as anti-tumor agents” (priority 2000, dated 2004).

System: cancer
Assay: Typical cases treated by oral capsules and injections
Type: in vivo, human
Settings: Patient Xu, before or after injection
Procedure: 1. The oral capsules were composed of bicycloplatin and adjuvant. The patients took the oral capsules containing 20-30 mg of bicycloplatin.
2. Injections of bicycloplatin water solution at the concentration of 1% in 5 ml per ampoule. Bicycloplatin water solution was dissolved in 100 ml injection containing 5% of glucose and 0.9% of sodium chloride and injected intravenously once every two days, two ampoules every time. 100 ml of sodium chloride injection should be transfused after the dripping of bicycloplatin. A course of treatment took 6 times (12 ampoules). The second course of treatment began after an interval of two weeks. After three consecutive courses of treatment, general examination was taken.

## double 1,1-cyclobutane dicarboxylic acid diaminoplatin complex [bicycloplatin]
  nausea and vomiting: didn't occur
